System: M. tuberculosis H37Rv growth inhibition
Assay: M. tuberculosis H37Rv growth inhibitors, H37Rv strain (AID 1626)
Details: measured here: Vero cell cytotoxicity

Cc1cccc(CN2CCN(C(c3ccccc3)c3ccc(Cl)cc3)CC2)c1 (stereo not given)
CC50: > 40 µM

Cc1cccc(NC(=O)c2ccc([N+](=O)[O-])o2)c1
CC50: 3.71 µM

O=C(Nc1ccc(Cl)cn1)c1ccc([N+](=O)[O-])o1
CC50: 8.36 µM

C1CCC(C(CC2CCCCN2)C2CCCCC2)CC1 (stereo not given)
CC50: 15 µM

O=c1[nH]c2ccccc2n1C1CCN(CCCC(c2ccc(F)cc2)c2ccc(F)cc2)CC1
CC50: 14.2 µM

— PubChem BioAssay AID1626 (SRMLSC, 2009)
